Measurements reported in PubChem BioAssay AID624099 (ICCB-Longwood, 2012).

- Assay: 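Human genes that papillomavirus E2 requires to repress the HPV18 LCR promoter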 (primary screen)
- System: human C33A cervical carcinoma cells (HPV-negative) stably expressing BPV1 E2 and an HPV18 LCR luciferase reporter
- Reagents: siRNA pool against human genes, 40 nM
- Timing: 72 h
- Read-out: 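HPV18 LCR reporter light per well, converted to plate-wise z-scores that exclude control wells, and averaged over triplicate plates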
- Direction: mean z-score and z-score: higher = stronger reporter signal, weaker E2 silencing
- Hit rule: 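Mean z ≥ 2 together with z ≥ 2 in two or more of the three replicates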
This is a random part of about 21,000 reagents tested. 497 of them (2.4%) were called active. 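Higher z means weaker E2 silencing; only reporter increases were scored, and knock-downs that hurt cell survival may mask genuine repressor factors.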 A number with no mark means an inactive call.

gene	mean z-score	z-score, replicate A	z-score, replicate B	z-score, replicate C
CTTNBP2 (cortactin binding protein 2)	-0.13	-0.28	-0.36	0.25
TRIM43 (tripartite motif containing 43)	0.55	0.64	0.44	0.57
DCLK1 (doublecortin like kinase 1)	-1.35	-1.24	-1.51	-1.31
HINT1 (histidine triad nucleotide binding protein 1)	-0.79	-0.71	-0.77	-0.87
MAK16 (MAK16 homolog)	-1.37	-1.24	-1.46	-1.42
SYNJ1 (synaptojanin 1)	-0.52	-0.65	-0.51	-0.4
SEPHS2 (selenophosphate synthetase 2)	1.53	1.66	1.59	1.35
H2BC14 (H2B clustered histone 14)	-0.7	-0.89	-0.57	-0.64
FAM182A (family with sequence similarity 182 member A)	-1.35	-1.47	-1.47	-1.09
WDR77 (WD repeat domain 77)	-1.56	-1.68	-1.58	-1.43
KDM5B (lysine demethylase 5B)	-0.46	-0.38	-0.41	-0.6
ORC6 (origin recognition complex subunit 6)	1.14	1.38	1.09	0.95
TMEM229A (transmembrane protein 229A)	0.73	0.33	1.01	0.83
EMX2 (empty spiracles homeobox 2)	1.76	2.27	1.37	1.64
SLC7A14	-1.35	-1.84	-1.23	-0.99
MRPL28 (mitochondrial ribosomal protein L28)	-1.04	-1.14	-0.91	-1.05
TSPY16P (testis specific protein Y-linked 16, pseudogene)	0.08	-0.19	-0.04	0.46
ERVFRD-1 (endogenous retrovirus group FRD member 1, envelope)	-0.69	-0.38	-0.29	-1.4
SPOPL (speckle type BTB/POZ protein like)	0.55	0.51	0.66	0.49
ATP6V0D2 (ATPase H+ transporting V0 subunit d2)	-0.66	-0.86	-0.65	-0.48
BFSP2 (beaded filament structural protein 2)	-0.95	-0.81	-1.01	-1.03
CIDEB (cell death inducing DFFA like effector b)	-0.34	-0.45	-0.37	-0.18
CCDC120 (coiled-coil domain containing 120)	0.57	0.43	0.74	0.54

In a second layout: entries from further up.
{"gene":"CIDEB (cell death inducing DFFA like effector b)","mean z-score":-0.34,"z-score, replicate A":-0.45,"z-score, replicate B":-0.37,"z-score, replicate C":-0.18}
{"gene":"CCDC120 (coiled-coil domain containing 120)","mean z-score":0.57,"z-score, replicate A":0.43,"z-score, replicate B":0.74,"z-score, replicate C":0.54}
